Assay results published in article PMC8130932.

Target: RBD-VLP (Spycatcher-mi3 VLP-particles conjugated with Spytagged-RBD recombinant protein) (SARS-CoV-2)
Assay: ELISA

VHH72-Fc showed an IC50 of 2 nM.
